Tested on: lipid raft fractions of plasma membranes of Jurkat lymphocytes
Assay: Isolation of lipid rafts by sucrose density gradient ultracentrifugation
Format: cell-based, human
Conditions: receptors 1 μM with anti-DNP-AF488, Triton-X, 4° C.

cholera toxin B subunit [reference compound]
association with low-density lipid raft membrane fraction (#5): a low density fluorescent membrane fraction (#5) was observed

From US7947647B2, “Synthetic mimics of mammalian cell surface receptors: method and compositions” (The Penn State Research Foundation, priority 2004, dated 2011)
